Chains of the proteins cited; added tags and fusions are not shown. Lines headed by an entry give the natural chain unless they say otherwise; changes in a name come on top.
UniProt P48431: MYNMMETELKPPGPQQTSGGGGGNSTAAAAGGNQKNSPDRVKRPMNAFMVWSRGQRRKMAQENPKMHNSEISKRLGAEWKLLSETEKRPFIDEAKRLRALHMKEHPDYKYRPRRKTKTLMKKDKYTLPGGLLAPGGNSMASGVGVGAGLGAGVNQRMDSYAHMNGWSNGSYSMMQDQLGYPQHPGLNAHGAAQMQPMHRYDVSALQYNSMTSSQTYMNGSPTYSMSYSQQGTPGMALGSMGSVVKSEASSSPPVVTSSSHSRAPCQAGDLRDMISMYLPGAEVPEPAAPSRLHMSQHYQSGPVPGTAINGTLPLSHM

According to PMC5537667:

Tests used:
[1] = target: SOX2 (UniProt P48431); test: competition with a labelled probe; conditions: protein in an extract, label: 32P end-label (unlabelled as competitor)
[2] = target: SOX2 (UniProt P48431); test: EMSA supershift; conditions: protein in an extract, label: 32P end-label (unlabelled as competitor)
[3] = anti-SOX2 2500 ng reduces the complexes, no supershifted band reported

“AACCATTCCATTGTTTTTTA (double strand) [S1 (HPV16 LCR site 1)]”: binds ([1]; cold S1, 60 and 260 fold, against labelled CS: strong competition); binds [2, 3].

“AACTGCACATGGGTGTGTGCAAACCGT (double strand) [S3 (HPV16 LCR site 3)]”: binds ([1]; cold S3, 60 and 260 fold, against labelled CS: strong competition); binds [2, 3].

“TAGTCATACAATGTTCATTT (double strand) [CS (SOX2 consensus)]”: binds ([1]; cold CS, 50 and 250 fold (legend: 60/260), against labelled S1, S2 or S3: clear drop in complexes, EMSA: 15 ug HeLa nuclear extract in 20 uL, 300 mM KCl, 15 mM MgCl2, 30% glycerol, 1 M DTT, 10 ug/uL BSA); binds ([2]; anti-SOX2 2500 ng gives supershift band, EMSA: 15 ug HeLa nuclear extract in 20 uL, 300 mM KCl, 15 mM MgCl2, 30% glycerol, 1 M DTT, 10 ug/uL BSA).

“TAGTCATACATTGTTCATTT (double strand) [S2 (HPV16 LCR site 2)]”: binds ([1]; cold S2, 60 and 260 fold, against labelled CS: strong competition); binds [2, 3].

For at least one entry, the source does not settle the construct or the ends of the probe. Results from cells or extracts need not show a direct contact.
